The results in this text go back to patent US20170226161A1.

The chains behind the UniProt entries cited, without tags or fusion partners. Residues count along the entry.
UniProt P08603, 321-443 limits assumed: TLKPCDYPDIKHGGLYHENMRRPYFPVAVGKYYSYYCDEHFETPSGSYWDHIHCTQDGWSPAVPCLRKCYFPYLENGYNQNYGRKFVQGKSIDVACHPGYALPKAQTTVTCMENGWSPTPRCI
UniProt P08603, 19-1231: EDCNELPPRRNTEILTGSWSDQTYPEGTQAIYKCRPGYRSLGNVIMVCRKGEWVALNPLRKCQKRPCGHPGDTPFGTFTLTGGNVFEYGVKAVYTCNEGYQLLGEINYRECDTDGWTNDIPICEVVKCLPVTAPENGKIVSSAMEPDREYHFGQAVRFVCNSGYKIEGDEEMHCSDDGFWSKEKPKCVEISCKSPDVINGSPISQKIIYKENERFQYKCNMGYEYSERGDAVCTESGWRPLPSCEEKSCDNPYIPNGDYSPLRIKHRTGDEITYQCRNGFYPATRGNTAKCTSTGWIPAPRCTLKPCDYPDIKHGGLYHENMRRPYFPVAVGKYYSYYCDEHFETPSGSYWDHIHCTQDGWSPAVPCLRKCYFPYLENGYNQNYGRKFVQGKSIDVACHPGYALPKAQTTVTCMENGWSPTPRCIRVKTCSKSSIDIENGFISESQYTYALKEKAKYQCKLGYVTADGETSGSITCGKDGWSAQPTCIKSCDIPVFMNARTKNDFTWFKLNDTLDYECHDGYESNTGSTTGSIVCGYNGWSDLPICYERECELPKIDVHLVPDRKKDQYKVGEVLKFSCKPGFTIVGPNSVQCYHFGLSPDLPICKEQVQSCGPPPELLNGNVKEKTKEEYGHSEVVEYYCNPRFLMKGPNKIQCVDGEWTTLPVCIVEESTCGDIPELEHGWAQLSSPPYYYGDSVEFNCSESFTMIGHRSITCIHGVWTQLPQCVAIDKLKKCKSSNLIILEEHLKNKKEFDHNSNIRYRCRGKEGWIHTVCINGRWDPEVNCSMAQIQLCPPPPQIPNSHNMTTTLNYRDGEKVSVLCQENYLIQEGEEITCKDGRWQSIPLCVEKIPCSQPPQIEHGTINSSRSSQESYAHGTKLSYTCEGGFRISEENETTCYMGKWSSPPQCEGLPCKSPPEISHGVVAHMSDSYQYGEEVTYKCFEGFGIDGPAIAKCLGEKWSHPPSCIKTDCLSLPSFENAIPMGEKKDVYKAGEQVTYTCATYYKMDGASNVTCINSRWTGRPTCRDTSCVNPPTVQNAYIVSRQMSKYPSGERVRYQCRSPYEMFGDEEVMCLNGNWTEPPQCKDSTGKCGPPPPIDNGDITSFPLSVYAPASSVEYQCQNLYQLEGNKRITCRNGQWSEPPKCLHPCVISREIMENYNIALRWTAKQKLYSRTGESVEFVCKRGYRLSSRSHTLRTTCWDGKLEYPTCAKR

The target of test [1] is factor H comprising only domains 6-7 (UniProt P08603).
Test [2] has as its target factor H full length (Calbiochem) (UniProt P08603).

As to “'wild-type' v2-v3-v1 fHbp fusion polypeptide”, in test [1], the Ration KD wt/x (residual binding) worked out at 1.
As to “'wild-type' v2-v3-v1 fHbp fusion polypeptide (other; other documents disagree on this pair)”, in test [2], the equilibrium dissociation constant (Kd) stood at 310 nM, the Ration KD wt/x (residual binding) was 1, the koff is 0.003 s⁻¹ and the kon turned out to be 11000 M⁻¹ s⁻¹.

The Kd is the concentration at which binding is half-saturated. The koff is the first-order rate constant of dissociation. Broadly, the kon is the second-order rate constant of association. A higher kon goes with fast association.
